What was measured:
[1] = tested on: influenza endonuclease (purified viral ribonucleoprotein, low-pH treated; polymerase-associated cap-dependent endonuclease) (Influenza virus); experiment: filter; settings: 5' m7Gppp cap; 2'-OMe on first transcribed G; 3'-terminal 3'-dA; 100 mM Tris-Cl pH 8.0, 50 mM KCl, 0.25 mM MgCl2, 5 mM DTT, 25 C; 50 nM uncapped triphosphate 10-mer included; 95% displaced by unlabeled capped 10-mer
[2] = tested on: influenza endonuclease (purified viral ribonucleoprotein, low-pH treated; polymerase-associated cap-dependent endonuclease) (Influenza virus); experiment: inhibition; settings: 5' m7Gppp cap; 2'-OMe on first transcribed G; 3'-terminal 3'-dA; inhibition of capped 19-mer cleavage; 100 mM Tris-Cl pH 8, 50 mM KCl, 5 mM DTT, MgCl2 (printed 250 mM)

With GGUAUUAAUA [capped 10-mer] as the sequence, how does the Kd [1] read?
Its Kd is 0.17 nM.

And the IC50 [2]?
The IC50 was 0.083 nM.
